{"source": "PubChem BioAssay AID624099 – ICCB-Longwood, 2012", "test": "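Knock-downs relieving repression by E2 of an HPV18 LCR luciferase reporter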 (primary screen)", "cells": "human C33A cervical carcinoma cells (HPV-negative) stably expressing BPV1 E2 and an HPV18 LCR luciferase reporter", "reagent": "siRNA pool against human genes, 40 nM", "time to read-out": "72 h", "read-out": "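Per-well luciferase luminescence, z-scored on each plate against the plate mean and SD with control wells left out, then averaged across three replicate plates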", "direction": "mean z-score and z-score: higher = stronger reporter signal, weaker E2 silencing", "rule for the call": "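Hit if mean z-score reaches 2 and two or more of three replicate z-scores also reach 2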", "note": "Here is an unselected part of about 21,000 deposited reagents. In the full data, 497 (2.4%) got an active call. 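Higher z means weaker E2 silencing; only reporter increases were scored, and knock-downs that hurt cell survival may mask genuine repressor factors.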 A number with no mark means an inactive call."}
{"target gene": "MIR646HG (MIR646 host gene)", "PubChem SID": "SID134329841", "mean z-score": -0.95, "z-score, replicate A": -0.55, "z-score, replicate B": -1.44, "z-score, replicate C": -0.85}
{"target gene": "IGF2BP3 (insulin like growth factor 2 mRNA binding protein 3)", "PubChem SID": "SID134310194", "mean z-score": 0.02, "z-score, replicate A": 0.03, "z-score, replicate B": 0.05, "z-score, replicate C": -0.03}
{"target gene": "LOC403312 (putative uncharacterized protein MGC39545)", "PubChem SID": "SID134329284", "mean z-score": 0.16, "z-score, replicate A": -0.05, "z-score, replicate B": 0.4, "z-score, replicate C": 0.14}
{"target gene": "LAPTM4B (lysosomal protein transmembrane 4 beta)", "PubChem SID": "SID134321625", "mean z-score": -0.74, "z-score, replicate A": -0.76, "z-score, replicate B": -0.46, "z-score, replicate C": -1}
{"target gene": "TMEM273 (transmembrane protein 273)", "PubChem SID": "SID134326493", "mean z-score": -1, "z-score, replicate A": -0.96, "z-score, replicate B": -1.13, "z-score, replicate C": -0.9}
{"target gene": "GOLGA6L2 (golgin A6 family like 2)", "PubChem SID": "SID134322796", "mean z-score": -0.16, "z-score, replicate A": -0.39, "z-score, replicate B": -0.13, "z-score, replicate C": 0.03}
{"target gene": "SQSTM1 (sequestosome 1)", "PubChem SID": "SID56479234", "mean z-score": 1.03, "z-score, replicate A": 0.74, "z-score, replicate B": 0.75, "z-score, replicate C": 1.6}
{"target gene": "ZDHHC12 (zDHHC palmitoyltransferase 12)", "PubChem SID": "SID134320295", "mean z-score": 0.48, "z-score, replicate A": 0.5, "z-score, replicate B": 0.05, "z-score, replicate C": 0.88}
{"target gene": "TRMT6 (tRNA methyltransferase 6 non-catalytic subunit)", "PubChem SID": "SID134321264", "mean z-score": 1.1, "z-score, replicate A": 0.99, "z-score, replicate B": 1.08, "z-score, replicate C": 1.24}
{"target gene": "STK17B (serine/threonine kinase 17b)", "PubChem SID": "SID56478762", "mean z-score": 0.1, "z-score, replicate A": 0.33, "z-score, replicate B": 0.16, "z-score, replicate C": -0.18}
{"target gene": "BMP2KL (BMP2 inducible kinase like (pseudogene))", "PubChem SID": "SID134326187", "mean z-score": -0.7, "z-score, replicate A": -0.74, "z-score, replicate B": -0.96, "z-score, replicate C": -0.39}
{"target gene": "SOX4 (SRY-box transcription factor 4)", "PubChem SID": "SID134316097", "mean z-score": -0.2, "z-score, replicate A": -0.24, "z-score, replicate B": -0.17, "z-score, replicate C": -0.21}
{"target gene": "LOC401923 (retired record)", "PubChem SID": "SID134328952", "mean z-score": 0.32, "z-score, replicate A": 0.51, "z-score, replicate B": -0.01, "z-score, replicate C": 0.44}
{"target gene": "SCML1 (Scm polycomb group protein like 1)", "PubChem SID": "SID134321585", "mean z-score": -0.31, "z-score, replicate A": -0.46, "z-score, replicate B": -0.45, "z-score, replicate C": -0.01}

Taken from above.
BMP2KL (BMP2 inducible kinase like (pseudogene)) [SID134326187], mean z-score: -0.7
Entry of LOC403312 (putative uncharacterized protein MGC39545) [SID134329284] under “z-score, replicate C”: 0.14
